From the NIST ThermoML archive (doi:10.1021/acs.jced.5b00343)

Tests used:
[1] = 101 kPa, Liquid; for speed of sound: Frequency=1.5 MHz, Sing-around technique in a fixed-path interferometer; for mass density: Vibrating tube method
[2] = refractive index (Na D-line) (dimensionless); conditions: 101 kPa, Liquid, Standard Abbe refractometry

CCCCOP(=O)(OCCCC)OCCCC [tributyl phosphate]
Conditions | mass density, [1] [kg/m3] | refractive index, [2] | speed of sound, [1] [m/s]
303.15 K | 968.39 | 1.421 | 1247.4
308.15 K | 964.11 | 1.419 | 1230.5
313.15 K | 959.82 | 1.4171 | 1213.8
318.15 K | 955.54 | 1.4146 | 1197.3
323.15 K | 951.26 | 1.4131 | 1181.4
